From paper PMC7828395, “Mapping the DNA-Binding Motif of Scabin Toxin, a Guanine Modifying Enzyme from Streptomyces scabies” (Toxins, 2021)
The exact form of at least one protein or probe is not confirmed.

Molecular target: Scabin WT (Streptomyces scabies) (UniProt C9Z6T8)
Experiment: fluorescence (Cy3-labelled ds-DNA), format not stated
Details: DNA-binding assay buffer; recombinant protein

“GGAAGAGAGAGAGAAAGAGAG (double strand) [21-bp ds-DNA (Cy3)]” gave a Kd of 51 µM.
